Compound potency records, mixed from different reports. Data source: NIAID ChemDB in PubChem.

Shared fields: whole-cell or culture tests; agent: Vaccinia virus

Lines come from different laboratories, so protocols vary. ECn is the concentration giving n% inhibition of infection, replication or growth. Two numbers with a dash give a range or band. An empty or dashed field is not shown.

SMILES | strain or isolate | cell line | read-out | value
Nc1ncnc2c1cnn2Cc1cn(CCCCO)nn1 |  | E6SM | EC50 | >400 µg/mL
Cc1nc2ccc(Br)cc2c(=O)n1-c1nnc(-c2cccc(Cl)c2Cl)c(N)n1 |  | E6SM | EC50 | 3.2 µg/mL
O=c1c2ncn(COCCO)c2nc2[nH]c(-c3ccccc3)c(-c3ccc(C(c4ccccc4)c4ccccc4)cc3)n12 |  |  | EC50 | >16 µg/mL
Nc1nc2c(nc(N3CCCCC3)n2COCCO)c(=O)[nH]1 |  | PRK | EC50 | >400 µg/mL
O=C(NS(=O)(=O)OC[C@H]1O[C@@H](n2ccc(=O)[nH]c2=O)[C@H](O)[C@@H]1O)O[C@H]1O[C@H](COC(=O)c2ccccc2)[C@@H](OC(=O)c2ccccc2)[C@H](OC(=O)c2ccccc2)[C@H]1OC(=O)c1ccccc1 |  | VERO | EC50 | 25 µg/mL
O=c1[nH]c(=O)n([C@@H]2C[C@H](CO)C[C@H]2CO)cc1I |  | E6SM | EC50 | >100 µg/mL
O=c1[nH]c(=O)n([C@H]2C[C@H](O)[C@@H](CO)O2)cc1Cc1ccccc1 |  | PRK | EC50 | 300 µM
CC(C)O[C@@H]1[C@H](OC(C)C)[C@@H](COS(=O)(=O)NC(=O)O[C@H]2O[C@H](COC(=O)c3ccccc3)[C@H](OC(=O)c3ccccc3)[C@H](OC(=O)c3ccccc3)[C@H]2OC(=O)c2ccccc2)O[C@H]1n1ccc(=O)[nH]c1=O |  | VERO | EC50 | 46 µg/mL
O=P1(O)OCC2O[C@@H](n3cnc4c(=S)nc[nH]c43)[C@H](O)C2O1 |  |  | MIC | 3.2–32 µg/mL
[N-]=[N+]=N[C@H]1[C@@H](F)[C@H](N2C=CC(N)NC2=O)O[C@@H]1CO |  | PRK | EC50 | >400 µg/mL
O=c1[nH]c(=O)n([C@@H]2OC3COP(=O)(O)OC3[C@H]2O)cc1I |  | PRK | EC50 | >400 µg/mL
Nc1nc(=O)n([C@@H]2C=C(CO)[C@@H](O)[C@H]2O)cc1Br | Copenhagen |  | EC50 | >100 µg/mL
CNc1nc2c(=O)[nH]c(N)nc2n1COCCO |  | PRK | EC50 | >400 µg/mL
OC[C@H]1O[C@@H](c2cc(I)c(F)cc2F)C[C@@H]1O |  | E6SM | EC50 | >400 µg/mL
O=c1[nH]c(=O)n(COCCO)cc1F |  | PRK | EC50 | >400 µg/mL
Nc1nc2c(ncn2[C@H]2OC[C@@H](CO)C2O)c(=O)[nH]1 |  | E6SM | EC50 | 240 µg/mL
OC[C@H]1O[C@H](c2cc(Br)c(F)cc2F)C[C@@H]1O |  | E6SM | EC50 | >400 µg/mL
CC(C)O[C@@H]1[C@H](OC(C)C)[C@@H](COS(=O)(=O)NC(=O)O[C@H]2O[C@H](COCc3ccccc3)[C@@H](OCc3ccccc3)[C@H](OCc3ccccc3)[C@H]2OCc2ccccc2)O[C@H]1n1ccc(=O)[nH]c1=O |  | VERO | EC50 | 1 µg/mL
CC(C)Nc1ncnc2c1ncn2C1C[C@H](CO)[C@@H](CO)C1 |  | E6SM | EC50 | >100 µg/mL
CC(C)O[C@@H]1[C@H](OC(C)C)[C@@H](COS(=O)(=O)NC(=O)O[C@H]2C[C@@H](OC(=O)c3ccccc3)[C@H](OC(=O)c3ccccc3)[C@@H](COC(=O)c3ccccc3)O2)O[C@H]1n1ccc(=O)[nH]c1=O |  | VERO | EC50 | 50 µg/mL
COc1cc(Cc2cnc(-n3c(-c4ccccc4)nc4ccc(Br)cc4c3=O)nc2N)cc(OC)c1OC |  | E6SM | EC50 | 80 µg/mL
CC1(CO)CCC(Cc2nc3ncnc(N)c3[nH]2)C1(C)C |  | E6SM | EC50 | 100 µg/mL
Nc1nccc2c1ncn2[C@@H]1C[C@H](CO)[C@@H](O)[C@H]1O |  | VERO | EC50 | 1.2 µg/mL
Nc1ccn([C@@H]2C=C(CO)[C@@H](O)[C@H]2O)c(=O)n1 | Copenhagen |  | EC50 | 0.12 µg/mL
O=P1(O)OCC2O[C@@H](n3cnc4c(NO)ncnc43)[C@H](O)C2O1 |  |  | MIC | 3.2–10 µg/mL
CCOc1cc(O)c(C(=O)/C=C/c2ccc(OC)cc2)c(OC)c1 | Rister | HeLa | EC50 | >3 µg/mL
CC(=O)OCCOCn1cnc2c(=O)n3cc(-c4ccc5ccccc5c4)[nH]c3nc21 |  |  | EC50 | >16 µg/mL
O=c1[nH]cnc2c1ncn2C1C[C@H](CO)[C@@H](CO)C1 |  | E6SM | EC50 | >100 µg/mL
Cc1cn([C@H]2OC[C@@H](CO)C2F)c(=O)[nH]c1=O |  | E6SM | EC50 | 240 µg/mL
CN(C)c1nc2c(=O)[nH]c(N)nc2n1COCCO |  | PRK | EC50 | ≥300 µg/mL
CCc1nc(-n2c(C)nc3ccc(Br)cc3c2=O)nc(N)c1-c1ccc(Cl)cc1 |  | E6SM | EC50 | 16 µg/mL
CC(=O)O[C@H]1C[C@H](n2cc(C)c(=O)[nH]c2=O)O[C@@H]1COS(=O)(=O)NC(=O)O[C@H]1O[C@H](COC(=O)c2ccccc2)[C@@H](OC(=O)c2ccccc2)[C@H](OC(=O)c2ccccc2)[C@H]1OC(=O)c1ccccc1 |  | VERO | EC50 | >200 µg/mL
Cn1cc(NC(=O)c2cc(NC(=O)c3cc([N+](=O)[O-])cn3C)cn2C)cc1C(=O)NCCC(=N)N | Noguchi | BSC-1 | EC50 | >200 µg/mL
Cc1[nH]c2nc3c(ncn3COCCO[Si](C)(C)C(C)(C)C)c(=O)n2c1C(c1ccccc1)(c1ccccc1)c1ccccc1 |  |  | EC50 | 2 µg/mL
Nc1nc(=O)n(COCCO)cc1[N+](=O)[O-] |  | PRK | EC50 | >400 µg/mL
CC(=O)N[C@H]1[C@@H](OC(=O)NS(=O)(=O)OC[C@H]2O[C@@H](n3ccc(=O)[nH]c3=O)[C@H](OC(C)C)[C@@H]2OC(C)C)O[C@H](COC(C)=O)[C@@H](OC(C)=O)[C@@H]1OC(C)=O |  | VERO | EC50 | >100 µg/mL
O=[N+]([O-])c1cc([C@H]2C[C@H](O)[C@@H](CO)O2)c(F)cc1F |  | E6SM | EC50 | >400 µg/mL
O=c1c2ncn(COCCO)c2[nH]c2ncc(CO)n12 |  |  | EC50 | >3.2 µg/mL
CC(C)O[C@@H]1[C@H](OC(C)C)[C@@H](COS(=O)(=O)NC(=O)O[C@H]2O[C@H](COC(=O)c3ccccc3)[C@@H](OC(=O)c3ccccc3)[C@H](OC(=O)c3ccccc3)[C@@H]2OC(=O)c2ccccc2)O[C@H]1n1ccc(=O)[nH]c1=O |  | VERO | EC50 | >100 µg/mL
O=c1ccn(COCCO)c(=O)[nH]1 |  | PRK | EC50 | >400 µg/mL
OCCCCn1cc(Cn2ncc3c(SCc4ccccc4)ncnc32)nn1 |  | E6SM | EC50 | >400 µg/mL
O=c1[nH]c(=O)n([C@@H]2O[C@H](CO)[C@@H](O)[C@@H]2O)cc1/C=C/Br |  | PRK | EC50 | >200 µg/mL
CC(C)CCOC(=O)C(O)Cn1cnc2c(N)ncnc21 |  | Primary rabbit kidney cells | EC50 | 20 µg/mL
Nc1ccn([C@@H]2OC[C@H](CO)[C@H]2O)c(=O)n1 |  | E6SM | EC50 | 240 µg/mL
CC1(CO)CCC(Cn2nnc3c(=O)[nH]cnc32)C1(C)C |  | E6SM | EC50 | >200 µg/mL
O=c1c2ncn(COC(CO)CO)c2nc2[nH]c(-c3ccccc3)cn12 |  |  | EC50 | >90 µg/mL
Cn1cc(NC(=O)c2cc(NC(=O)c3cc(NC=O)cn3C)cn2C)cc1C(=O)NCCC(=N)N | Noguchi | BSC-1 | EC50 | <10 µg/mL
CC1(CO)CCC(Cn2cnc3c(=O)[nH]cnc32)C1(C)C |  | E6SM | EC50 | 300 µg/mL
COc1ncnc2c1cnn2Cc1cn(CCCCO)nn1 |  | E6SM | EC50 | >400 µg/mL

For reference, 3 entries again:

SMILES | strain or isolate | cell line | read-out | value
O=c1[nH]c(=O)n(COCCO)cc1F |  | PRK | EC50 | >400 µg/mL
COc1cc(Cc2cnc(-n3c(-c4ccccc4)nc4ccc(Br)cc4c3=O)nc2N)cc(OC)c1OC |  | E6SM | EC50 | 80 µg/mL
O=c1c2ncn(COC(CO)CO)c2nc2[nH]c(-c3ccccc3)cn12 |  |  | EC50 | >90 µg/mL